A mixed list of measured activities; the numbers were collected in NIAID ChemDB.

All rows: growth or infection tests; organism: Mycobacterium tuberculosis

Blank or dashed fields: not listed here.

smiles	changes	endpoint	strain or isolate	dose	setting	method	value
Cn1c2ccccc2c2cc(C=NNc3nc(-c4ccccc4O)cs3)ccc21	-	EC90	H37Rv	-	-	fluorescence	>50 µM
O=C1c2ccccc2C(=O)c2c1c(O)cc1oc(-c3ccccc3)nc21	-	MIC bound	H37Rv	-	-	resazurin	>6.25 µg/mL
NNC(=O)c1ccncc1	-	MIC	Clinical isolate 9	-	-	-	50 µg/mL
CC1CN(c2c(F)cc3c(=O)c(C(=O)O)cn(C4CC4)c3c2O)CCN1.[Cl][Rh]([Cl])[Cl]	-	MIC	ATCC 27294	-	-	-	0.8 µg/mL
N#C/C(=C\c1cccc(C#N)c1)n1nnc2ccccc21	-	MIC90	ATCC 27294	-	-	-	64.5 µM
O=C(C1CCCCC1)N1CCN(S(=O)(=O)c2cccc3ccccc23)CC1	-	MIC90	H37Rv	-	-	resazurin	>100 µM
O=C1C=C([C@@H]2O[C@H](CO)[C@@H](O)[C@H]2O)C(=O)N1	-	MIC	H37Rv	-	-	BACTEC	≥12.8 µg/mL
O=C(NCc1ccccn1)c1cc(Br)ccc1O	-	MIC	H37Rv	-	14 d	-	250 µM
O=C(O)c1cn(C2CC2)c2cc(N3CCN(/N=C/c4ccc(F)cc4)CC3)c(F)cc2c1=O	-	MIC90	H37Rv	-	-	fluorescence	0.86 µM
Cn1c2ccccc2c2cc(C=NNc3nc(-c4ccc(F)cc4)cs3)ccc21	-	EC90	H37Rv	-	-	fluorescence	170 µM
NNC(=O)c1ccncc1	-	MIC99	NHN382	-	-	-	1.6 µg/mL
CC1(C)C[C@H]2[C@@H](C1)[C@@H]([C@H](CCO)NCCCCCCCCN[C@@H](CCO)[C@H]1O[C@@H]3CC(C)(C)C[C@@H]3[C@H]3CC(C)(C)C[C@H]31)O[C@@H]1CC(C)(C)C[C@H]21	-	MIC	H37Rv	-	-	-	25 µg/mL
O=S(=O)(c1cccc2cnccc12)N1CCN(C(=S)Nc2ccc3c(c2)OCO3)CC1	Inosine monophosphate dehydrogenase-resistant	MIC90	SRMV2.6	-	-	resazurin	>100 µM
COc1cccc(C(=O)NCc2ccccn2)c1O	-	MIC	H37Rv	-	14 d	-	250 µM
CC(Oc1ccccc1)C(=O)N/N=C1\CCOc2ccccc21	-	EC50	H37Rv	-	-	-	~40 µg/mL
CC(=O)[C@]1(O)Cc2c(O)c3c(c(O)c2[C@@H](O[C@H]2C[C@H](N)[C@H](O)[C@H](C)O2)C1)C(=O)c1ccccc1C3=O	-	MIC	H37Ra	-	-	-	6.25 µM
CN1[C@@H]2CC[C@H]1CC(OC(=O)[C@H](CO)c1ccccc1)C2	-	inhibition	H37Rv	12.8 µg/mL	-	BACTEC	-1%
CO[C@H]1/C=C/O[C@@]2(C)Oc3c(C)c(O)c4c(O)c(c5c(c4c3C2=O)NC2(CCN(CC(C)C)CC2)N=5)=NC(=O)/C(C)=C\C=C\[C@H](C)[C@H](O)[C@@H](C)[C@@H](O)[C@@H](C)[C@H](OC(C)=O)[C@@H]1C	-	MBC	H37RV (RIF-S)	-	-	-	0.25 µg/mL
O=C(NN1CCN(c2cc3c(cc2F)c(=O)c(C(=O)O)cn3C2CC2)CC1)c1cccc(B(O)O)c1	-	MIC90	H37Rv	-	-	fluorescence	>50 µM
O=C(O)C1OC(Oc2ccc3oc4ccccc4c(=O)c3c2)C(O)C(O)C1O	-	MIC	H37Rv	-	-	BACTEC	≥12.5 µg/mL
N#C/C(=C\c1ccc(Cl)cc1Cl)n1nnc2ccccc21	-	MIC90	ATCC 27294	-	-	-	>100 µM
CC[C@H](CC[C@@H](C)[C@H]1CC[C@H]2[C@@H]3CC=C4C[C@@H](O)CC[C@]4(C)[C@H]3CC[C@]12C)C(C)C	-	MIC	H37Rv	-	-	-	128 µg/mL
Nc1ccccc1O.O.O=C(O)C1[O][Sb][O]C1C(=O)O	-	MIC	H37Ra	-	-	-	12.5 µM
COC1C[C@H](C)[C@@H](OC)C2=CC(=O)C=C(NC(=O)/C(C)=C/C=C\[C@H](C)C(OC(N)=O)/C(C)=C/[C@@H](C)[C@@H]1OC)C2=O	-	MIC	KM-R	-	-	-	12.5 µg/mL
CC(C)=CCCC(C)[C@H]1CC[C@@]2(C)C3CCC4C(C)(C)[C@@H](O)CCC45CC35CC[C@]12C	-	MIC	H37Rv	-	-	-	>64 µg/mL
COc1ccccc1-c1cnc(N)c(C#N)n1	-	MIC bound	H37Rv	-	-	BACTEC	>12.5 µg/mL
O=C(NN1CCN(c2cc3c(cc2F)c(=O)c(C(=O)O)cn3C2CC2)CC1)c1ccc(OC(F)(F)F)cc1	-	MIC90	H37Rv	-	-	fluorescence	>50 µM
Cc1ccc(CSC(=S)NNc2ccccc2)cc1C	-	MIC bound	H37Rv	-	-	BACTEC	>128 µg/mL
N#C/C(=C\c1cc(F)cc(F)c1)n1nnc2ccccc21	-	MIC50	ATCC 27294	-	-	-	56.9 µM
NC[C@H]1O[C@H](O[C@H]2[C@H](O)[C@@H](O[C@H]3O[C@H](CO)[C@@H](O)[C@H](N)[C@H]3O)[C@H](N)C[C@@H]2N)[C@H](O)[C@@H](O)[C@@H]1O	-	MIC	H37Rv	-	-	-	2 µg/mL
Nc1nc(-c2ccccc2)nc2nc3[nH]c(=O)[nH]c(=O)c3nc12	-	inhibition	H37Rv	12.5 µg/mL	-	BACTEC	25%
CO[C@H]1/C=C/O[C@@]2(C)Oc3c(C)c(O)c4c(O)c(c(/C=N/N5CCN(C)CC5)c(O)c4c3C2=O)NC(=O)/C(C)=C\C=C\[C@H](C)[C@H](O)[C@@H](C)[C@@H](O)[C@@H](C)[C@H](OC(C)=O)[C@@H]1C	-	MIC	Clinical isolate 7	-	-	-	0.5 µg/mL
N#Cc1ccc(C(=O)NN2CCN(c3cc4c(cc3F)c(=O)c(C(=O)O)cn4C3CC3)CC2)cc1	-	MIC90	H37Rv	-	-	fluorescence	>50 µM
CC(C)[C@@H](C)/C=C/[C@@H](C)[C@H]1CCC2[C@@]34C=C[C@]5(C[C@@H](O)CC[C@]5(C)C3CC[C@@]21C)OO4	-	MIC	H37Rv	-	-	-	2.5 µg/mL
Cn1c2ccccc2c2cc(C=NNc3nc(-c4cccc([N+](=O)[O-])c4)cs3)ccc21	-	EC90	H37Rv	-	-	fluorescence	>200 µM
O=CN(O)CC(=O)[O-].[Na+]	-	MIC bound	H37Rv	-	-	BACTEC	>12.5 µg/mL
O=C(NN1CCN(c2cc3c(cc2F)c(=O)c(C(=O)O)cn3C2CC2)CC1)c1ccc(F)cc1	-	MIC90	H37Rv	-	-	fluorescence	>50 µM
NNC(=O)C(=O)N=Cc1ccc([N+](=O)[O-])o1	-	MIC	ETA-R	-	-	-	3.1 µg/mL
CCc1ccc(Oc2ccccc2)c(O)c1	-	MIC99	H37Rv	-	-	-	17.5 µM
Nc1nc(Cl)nc2c1ncn2[C@@H]1O[C@H](CO)[C@@H](O)[C@H]1O	-	MIC	H37Ra	-	-	-	12.5 µM
CCCCCCCC/C=C/CCCCCCCC(=O)N(C)N(C)C(=O)CCCCCCC/C=C/CCCCCCCC	-	MIC	H37Rv	-	-	BACTEC	≥12.5 µg/mL
CCOC(=O)CC(NCCCCCCCCCNC(CC(=O)OCC)[C@H]1O[C@@H]2CC(C)(C)C[C@@H]2[C@H]2CC(C)(C)C[C@H]21)[C@H]1O[C@@H]2CC(C)(C)C[C@@H]2[C@H]2CC(C)(C)C[C@H]21	-	MIC	H37Rv	-	-	-	25 µg/mL
Cn1c2ccccc2c2cc(C=NNc3nc(-c4ccccc4)cs3)ccc21	-	MIC	H37Rv	-	-	fluorescence	32 µM
O=C1c2c(O)ccc(O)c2C(=O)c2c(NCCCCCO)ccc(NCCCCCO)c21	-	MIC bound	H37Rv	-	-	BACTEC	>12.5 µg/mL
O=C(O)c1cn(C2CC2)c2cc(N3CCN(/N=C/c4ccccc4F)CC3)c(F)cc2c1=O	-	MIC90	H37Rv	-	-	fluorescence	1.02 µM
CC1=NN(c2nc(N)nc(NS(=O)(=O)c3cc(C)c(Cl)cc3S)n2)C(C)(C)C1	-	MIC bound	H37Rv	-	-	BACTEC	>12.5 µg/mL
C/C=C(/C)C(=O)OC1CC(C)(C)CC2C3=CCC4C5(C)CC[C@H](O)C(C)(C)C5CC[C@@]4(C)[C@]3(C)CC[C@@]12C(=O)O	-	MIC	H37Rv (rifampicin-resistant)	-	-	-	50 µg/mL
O=C(NCc1cccnc1)c1cc(Cl)cc(Cl)c1O	-	MIC	H37Rv	-	21 d	-	500 µM
CC1(C)C[C@H]2[C@@H](C1)[C@@H](C(CCO)NCCCCCCCCCCCCNC(CCO)[C@H]1O[C@@H]3CC(C)(C)C[C@@H]3[C@H]3CC(C)(C)C[C@H]31)O[C@@H]1CC(C)(C)C[C@H]21	-	MIC	H37Rv	-	-	-	12.5 µg/mL
CCOc1ccc(NC(=S)NC=C(C(N)=O)C(N)=O)cc1	-	inhibition	H37Rv	6.25 µg/mL	-	BACTEC	98%
CCOC(=O)C[C@H](NCCCCCCCN[C@H](CC(=O)OCC)[C@H]1O[C@@H]2CC(C)(C)C[C@@H]2[C@H]2CC(C)(C)C[C@H]21)[C@H]1O[C@@H]2CC(C)(C)C[C@@H]2[C@H]2CC(C)(C)C[C@H]21	-	MIC	H37Rv	-	-	-	>25 µg/mL
Cc1cc2c(=O)cc(-c3ccccc3)oc2c(C(N)=O)c1C	-	MIC bound	H37Rv	-	-	BACTEC	>12.5 µg/mL
CC1(C)O[C@H]2OC([C@H](CCO)NCCCCCCCCCN[C@@H](CCO)C3O[C@@H]4OC(C)(C)O[C@@H]4[C@H]3OCc3ccccc3)[C@H](OCc3ccccc3)[C@H]2O1	-	MIC	H37Rv	-	-	-	25 µg/mL
CC1OC(CC(=O)O)CC2=C1C(=O)c1c(O)cccc1C2=O	-	MIC	H37Ra	-	-	-	6.25 µM
CC1(C)O[C@H]2OC([C@H](CCO)NCCCCCCCCCCCCN[C@@H](CCO)C3O[C@@H]4OC(C)(C)O[C@@H]4[C@H]3OCc3ccccc3)[C@H](OCc3ccccc3)[C@H]2O1	-	MIC	H37Rv	-	-	-	12.5 µg/mL
CC(C)N(C)N1CCN(c2cc3c(cc2F)c(=O)c(C(=O)O)cn3C2CC2)CC1	-	MIC90	H37Rv	-	-	fluorescence	0.6 µM
CO[C@H]1/C=C/O[C@@]2(C)Oc3c(C)c(O)c4c(=O)c(c5oc6cc(N7CCN(CC(C)C)CC7)cc(=O)c6nc5c4c3=C2O)NC(=O)/C(C)=C\C=C\[C@H](C)[C@H](O)[C@@H](C)[C@@H](O)[C@@H](C)[C@H](OC(C)=O)[C@@H]1C	-	inhibition	Kurata	10 µg/mL	inside macrophages	-	90.8%
CCOC(=O)CC(NCCCCCCCCNC(CC(=O)OCC)[C@H]1O[C@@H]2CC(C)(C)C[C@@H]2[C@H]2CC(C)(C)C[C@H]21)[C@H]1O[C@@H]2CC(C)(C)C[C@@H]2[C@H]2CC(C)(C)C[C@H]21	-	MIC	H37Rv	-	-	-	12.5 µg/mL
N#C/C(=C\c1cc(Cl)cc(Cl)c1)n1nnc2ccccc21	-	MIC90	ATCC 27294	-	-	-	>100 µM
CN1c2ccccc2S(=O)(=O)n2c(CCc3ccccc3)nnc21	-	inhibition	H37Rv	6.25 µg/mL	-	-	-12%
O=C(C1CCCCCC1)N1CCN(S(=O)(=O)c2cccc3cnccc23)CC1	Inosine monophosphate dehydrogenase-resistant	MIC90	SRMV2.6	-	-	resazurin	>250 µM
Cn1c2ccccc2c2cc(C=NNC(N)=S)ccc21	-	EC90	H37Rv	-	-	fluorescence	5.9 µM
O=C(NCc1cccnc1)c1cc(Br)cc(Br)c1O	-	MIC	H37Rv	-	21 d	-	250 µM
N#Cc1cccc(CC(=O)N2CCN(S(=O)(=O)c3cccc4cnccc34)CC2)c1	Inosine monophosphate dehydrogenase-resistant	MIC90	SRMV2.6	-	-	resazurin	>250 µM
Cc1nccn1C(/C(=N/O)c1ccccc1)c1ccccc1	-	MIC bound	H37Rv	-	-	resazurin	>6.25 µg/mL
O=C(NC1CCN(S(=O)(=O)c2cccc3cnccc23)CC1)C1CCCCC1	-	MIC90	H37Rv	-	-	resazurin	>100 µM
CC1(C)C[C@H]2[C@@H](C1)[C@@H](C(CCO)NCCCCNC(CCO)[C@H]1O[C@@H]3CC(C)(C)C[C@@H]3[C@H]3CC(C)(C)C[C@H]31)O[C@@H]1CC(C)(C)C[C@H]21	-	MIC	H37Rv	-	-	-	>12.5 µg/mL
Cc1cc2nc3ccc(O)cc3nc2cc1N	-	inhibition	H37Rv	12.5 µg/mL	-	BACTEC	-18%
CCOC(=O)C[C@H](NCCCCCCCCN[C@@H](CC(=O)OCC)C1O[C@@H]2OC(C)(C)O[C@@H]2[C@H]1OCc1ccccc1)C1O[C@@H]2OC(C)(C)O[C@@H]2[C@H]1OCc1ccccc1	-	MIC	H37Rv	-	-	-	25 µg/mL
O=C(NCc1ccccn1)c1cc(Br)cc(Br)c1O	-	MIC	H37Rv	-	14 d	-	125 µM
COc1cc2ccccc2c2cc([N+](=O)[O-])oc12	-	MIC	H37Rv	-	-	resazurin	≤0.1 µg/mL
Cn1c2ccccc2c2cc(C=NNc3nc(-c4cc5cc(Br)ccc5oc4=O)cs3)ccc21	-	EC50	H37Rv	-	-	fluorescence	>200 µM
CN(C)C(=O)Nc1nc2cc(Cl)c(Cl)cc2[nH]1	-	MIC bound	H37Rv	-	-	BACTEC	<6.25 µg/mL
Cn1c2ccccc2c2cc(C=NNc3nc(-c4ccc([N+](=O)[O-])cc4)cs3)ccc21	-	MIC	H37Rv	-	-	fluorescence	>200 µM

MIC bound comes from a single tested concentration. Percent inhibition refers to the dose given; in toxicity tests it is the harm to the cells. ECn is the concentration giving n% inhibition of infection, replication or growth. Conditions beyond the fields shown may differ between rows. MIC50, MIC90 and the like: level of inhibition, or share of isolates inhibited.